The exact form of at least one protein or probe is not confirmed. At least one verdict was read from the data and is not stated in words by the source.
Molecular target: N protein (unphosphorylated, lambda-phosphatase treated) (SARS-CoV-2 (isolate Wuhan-Hu-1)) (UniProt P0DTC9)
Test: competition (BLI)
Settings: recombinant protein; residues 1-419; protein details: His6-MBP tag cleaved (3C), linker remnant possible

Sequence: TACAGATCTACTAGTGATCTATGACTGATCTGTACATGATCTACA (double strand) [45-bp DNA (ISD)]
- binding result: binds

— paper PMC12232725
